# Assay results reported in PMC3569735.
# Tests used:
# [1] = target: gp70 B.CaseA2 V1–V2 (HIV-1 (B.CaseA2)); experiment: ELISA
# V1–V2 bnAb PG9 (human) = experiment: SPR
Substance,EC50 [1],Kd (V1–V2 bnAb PG9 (human)),fold slower association rate than CH58 and CH59 (V1–V2 bnAb PG9 (human))
mAb CH58 (antibody),9.3 nM,,
AE.A244 V1–V2 tags protein (domain or fragment),,81.6 nM,40 fold
